In paper PMC3812931 (Journal of medicinal chemistry, 2013):

Key:
gp120SF162 (clade B) = gp120SF162 (clade B) (Human immunodeficiency virus type 1 group M subtype B, UniProt P19550); test: Competitive ELISA against sCD4 on gp120SF162; assay type: binding, HIV-1
gp120CN54 (clade C) = test: Competitive ELISA against sCD4 on gp120CN54; assay type: binding, HIV-1; conditions: oxidation of thioether in 9 to sulfoxide

Q: How did the IC50 (gp120SF162 (clade B); SEM) turn out when CC(C)C[C@@H]1NC(=O)CNC(=O)[C@H](CC(C)C)NC(=O)[C@H](CO)NC(=O)[C@H](CCCCN)NC(=O)[C@@H]2CSSC[C@@H](C(=O)N[C@H](C(N)=O)C(C)C)NC(=O)[C@H](C)NC(=O)[C@@H]3CSSC[C@H](NC(=O)[C@H](Cc4ccccc4)NC(=O)[C@H](Cc4c[nH]cn4)NC(=O)[C@H](CC(C)C)NC(=O)[C@H](CC(N)=O)NC(=O)CCSSC[C@H](NC(=O)[C@H](CCCNC(=N)N)NC(=O)CNC(=O)[C@H](CC(C)C)NC1=O)C(=O)N[C@@H](C)C(=O)N1CCC[C@@H]1C(=O)N[C@@H]([C@@H](C)O)C(=O)N[C@@H](Cc1ccc(OC[C@@H]4CCCN4)cc1)C(=O)N3)C(=O)N[C@@H](CCC(N)=O)C(=O)N[C@@H](CC(C)C)C(=O)N[C@@H](CCCNC(=N)N)C(=O)N2 [compound 10] was run?
A: 5.28 ± 0.46 nM

Q: Which “drop in affinity for gp120CN54 relative to 9” value (gp120CN54 (clade C)) does the source give for CC(C)C[C@@H]1NC(=O)CNC(=O)[C@H](CC(C)C)NC(=O)[C@H](CO)NC(=O)[C@H](CCCCN)NC(=O)[C@@H]2CSSC[C@@H](C(=O)N[C@H](C(N)=O)C(C)C)NC(=O)[C@H](C)NC(=O)[C@@H]3CSSC[C@H](NC(=O)[C@H](Cc4ccccc4)NC(=O)[C@H](Cc4c[nH]cn4)NC(=O)[C@H](CC(C)C)NC(=O)[C@H](CC(N)=O)NC(=O)CCSSC[C@H](NC(=O)[C@H](CCCNC(=N)N)NC(=O)CNC(=O)[C@H](CC(C)C)NC1=O)C(=O)N[C@@H](C)C(=O)N1CCC[C@@H]1C(=O)N[C@@H]([C@@H](C)O)C(=O)N[C@@H](Cc1ccc(OCC[S+]([O-])CCO)cc1)C(=O)N3)C(=O)N[C@@H](CCC(N)=O)C(=O)N[C@@H](CC(C)C)C(=O)N[C@@H](CCCNC(=N)N)C(=O)N2 (stereo partly drawn) [compound 15] here?
A: over 300 fold

Q: And the “affinity for the SF162 strain reduced by a factor, relative to 9” value (gp120SF162 (clade B); oxidation of thioether in 9 to sulfoxide)?
A: 29
